Drawing on ChEMBL document CHEMBL4495565, “Cytopathic SARS-Cov2 screening on VERO-E6 cells in a large repurposing effort” (2020), this text covers inhibition for one compound.

In the assay the test system is SARS-CoV-2. Nature of the assay: Antiviral activity determined as inhibition of SARS-CoV-2 induced cytotoxicity of VERO-6 cells at 10 uM after 48 hours exposure to 0.01 MOI SARS CoV-2 virus by high content imaging. To be noted: Chlorocebus sabaeus, Vero C1008.

SMILES strings stand for the structures.

`CN(C)CCS` returned an inhibition of 0.09%.
